Measured values from several laboratories, pooled; numbers as filed in NIAID ChemDB.

Common to all: growth or infection tests; agent: Herpes simplex virus 1; endpoint: EC50

ECn is the concentration giving n% inhibition of infection, replication or growth.

smiles | strain or isolate | read by | cells | value
Cc1cn([C@@H]2O[C@H](CO)[C@@H](O)[C@@H]2O)c(=O)[nH]c1=O | WT-34 | plaque count | HEL | 0.33 µM
Nc1nc2c(ncn2C[C@]2(CO)C[C@H]2CO)c(=O)[nH]1 | KOS | plaque count | HEL | 0.023 µg/mL
c1cc(NC2CCCCC2)cc(-c2cc3c(-c4ccnc(NC5CCC5)n4)ccc(NC4CCC4)n3n2)c1 | SC16 | antigen / hybridisation | VERO 76 | 3.24 µM
CCC(Sc1ncnc2c1cnn2CCCCO)C(N)=O | B2006 (TK-) | cytopathic effect | E6SM | >400 µg/mL
CC(C)c1cn([C@@H]2O[C@H](COP(=O)(O)O)[C@@H](O)[C@H]2O)c(=O)nc1N | KOS |  |  | >400 µg/mL
CCc1cn([C@H]2C[C@H](O)[C@@H](CO)O2)c(N)nc1=O | KOS | cytopathic effect | PRK | >400 µg/mL
CN(C)c1cccc(-c2cc3c(-c4ccnc(NC5CCC5)n4)ccc(NC4CCC4)n3n2)c1 | SC16 | antigen / hybridisation | VERO 76 | 1.7 µM
O=C(NCc1ccc(Cl)cc1)c1c[nH]c2ccc(CCCO)cc2c1=O | MAC | plaque count |  | 16 µM
CCCCCCc1cn([C@@H]2OC3COP(=O)(O)OC3[C@H]2O)c(=O)nc1N | F |  |  | >400 µg/mL
O=c1c2ncn(COCCO)c2nc2[nH]c(-c3ccccc3)c(Cc3ccccc3)n12 | TK- | cytopathic effect | HEL | >16 µg/mL
CCc1cn([C@@H]2OC3COP(=O)(O)OC3[C@H]2O)c(=O)nc1N | KOS |  |  | >400 µg/mL
O=c1[nH]c(=O)n([C@@H]2C[C@H](CO)[C@@H](O)C2)cc1/C=C/Br | KOS | cytopathic effect | PRK | 0.05 µg/mL
CCCCOc1ccc(-c2cc3c(-c4ccnc(NC5CCCC5)n4)ccc(NC4CCCC4)n3n2)cc1 | SC16 | antigen / hybridisation | VERO 76 | 3.13 µM
O=c1[nH]c(=O)n([C@@H]2C[C@H](CO)[C@@H](O)C2)cc1I | F | cytopathic effect | PRK | 0.07 µg/mL
CC(=O)Nc1cccc(-c2cc3c(-c4ccnc(NC5CCCC5)n4)ccc(NC4CCCC4)n3n2)c1 | SC16 | antigen / hybridisation | VERO 76 | 2.26 µM
O=c1[nH]c(=O)n([C@H]2C[C@@H](CO)[C@H](O)C2)cc1I | VMW1837 (TK-) | cytopathic effect | PRK | >400 µg/mL
CCCCCCCC/C=C/CCCCCCCC(=O)OCC(CO)OCn1cnc2c(=O)[nH]c(N)nc21 | KOS | cytopathic effect | HEL | 0.001 µM
O=c1c2ncn(COCCO)c2nc2[nH]c(-c3ccc(F)cc3)cn12 | F | cytopathic effect | HEL | >16 µg/mL
Nc1nc2c(ncn2CC[C@@H](O)CO)c(=O)[nH]1 | C42 | plaque count | SIRC | 1.4 µM
CC(=O)OC[C@H]1[C@H](COC(C)=O)[C@@H](CO)O[C@H]1n1cnc2c(N)ncnc21 | Clinical isolate HL-34 | plaque count | MEF | 184 µM
O=c1[nH]c(=O)n([C@@H]2O[C@H](CO)[C@@H](O)[C@@H]2O)cc1/C=C/Br | VR-3 | plaque count | VERO | >1100 µM
Cn1cc(C(=O)NCc2ccc(Cl)cc2)c(=O)c2cc(CN3CCOCC3)ccc21 | F-M1 | plaque count | VERO | >20 µM
Nc1nc2c(ncn2[C@H]2OC[C@@H](CO)C2O)c(=O)[nH]1 | KOS TK- acyclovir-resistant | cytopathic effect | E6SM | 240 µg/mL
Nc1nc2c(ncn2CC[C@H](O)CO)c(=O)[nH]1 | C42 | plaque count | VERO | 13 µM
CCc1cn([C@H]2C[C@H](O)[C@@H](CO)O2)c(=O)[nH]c1=O | VMW1837 (TK-) | cytopathic effect | PRK | >400 µg/mL
CC(NC(=S)Nc1ccc(NC(=O)c2ccccc2F)cc1C#N)c1ccc(F)cc1 | Patton | ELISA | HFF | >10 µg/mL
Cc1cn([C@H]2OC[C@@H](CO)C2F)c(=O)[nH]c1=O | KOS TK- acyclovir-resistant | cytopathic effect | E6SM | 240 µg/mL
CC1(C)[C@@H](CCO)C[C@H]1n1nnc2c(N)nc(N)nc21 | KOS | cytopathic effect | E6SM | >400 µg/mL
N#Cc1cccc(-c2cc3c(-c4ccnc(NC5CCCC5)n4)ccc(NC4CCCC4)n3n2)c1 | SC16 | antigen / hybridisation | VERO 76 | 0.28 µM
CC1(C)[C@@H](CCO)C[C@H]1n1cnc2c(N)ncnc21 | KOS | cytopathic effect | E6SM | >400 µg/mL
O=c1[nH]c(=O)n([C@H]2C[C@H](O)[C@@H](CO)O2)cc1I | KOS | plaque count | VERO | 1.1 µM
Nc1ncnc2c1ncn2[C@@H]1O[C@H](COP(=O)(O)O)[C@@H](O)[C@@H]1O | Clinical isolate HL-3 | plaque count | MEF | 15 µM
O=c1c2ncn(COC(CO)CO)c2nc2[nH]c(-c3ccc(C(F)(F)F)cc3)cn12 | TK- | cytopathic effect | HEL | >80 µg/mL
Cn1cc(C(=O)NCc2ccc(Cl)cc2)c(=O)c2cc(/C=C\CO)cc(F)c21 | KOS-M2 | plaque count | VERO | >20 µM
Nc1nc2c(ncn2CCC(CO)CO)c(=O)[nH]1 | KD1 | plaque count | VERO | 122.7 µM
Nc1nc2c(ncn2COC(CO)CO)c(=O)[nH]1 | 95-1552 | PCR |  | 0.7 µM
Nc1ncnc2c1ncn2[C@H]1OC[C@@H](CO)C1O | KOS | cytopathic effect | E6SM | >80 µg/mL
CCCCCCCC/C=C/CCCCCCCC(=O)O | KOS | cytopathic effect | HEL | >100 µM
CS(=O)(=O)Nc1cccc(-c2cc3c(-c4ccnc(NC5CCCC5)n4)ccc(NC4CCCC4)n3n2)c1 | SC16 | antigen / hybridisation | VERO 76 | 2.09 µM
O=c1[nH]c(=O)n([C@H]2C[C@H](O)[C@@H](CO)O2)cc1/C=C/Br | HU-5 | cytopathic effect | HEL | 0.023 µM
CCC(Sc1ncnc2c1cnn2COCCO)C(N)=O | B2006 (TK-) | cytopathic effect | E6SM | >400 µg/mL
CC1(C)[C@@H](CCO)C[C@H]1n1nnc2c(Cl)nc(N)nc21 | KOS | cytopathic effect | E6SM | >100 µg/mL
CCc1cn([C@H]2C[C@H](O)[C@@H](COP(=O)(O)O)O2)c(=O)[nH]c1=O | F | cytopathic effect | PRK | 1.4 µg/mL
C=CCOc1ccc(-c2cc3c(-c4ccnc(NC5CCCC5)n4)ccc(NC4CCCC4)n3n2)cc1 | SC16 | antigen / hybridisation | VERO 76 | 0.2 µM
[O-][n+]1onc2ncnc(N3CC[N+]4(CC3)CC[N+]3(CCN(c5ncnc6no[n+]([O-])c56)CC3)CC4)c21 | ANGPR | plaque count | GMK | 9.8 µM
CCCc1cn([C@H]2C[C@H](O)[C@@H](CO)O2)c(=O)[nH]c1=O | KOS | cytopathic effect | HEP-2 | 0.15 µg/mL
O=c1[nH]c(=O)n(C2CC(CO)[C@H](O)C2)cc1I | McIntyre | cytopathic effect | PRK | 0.1 µg/mL
CCc1cn([C@@H]2O[C@H](COP(=O)(O)O)[C@@H](O)[C@H]2O)c(=O)nc1N | KOS |  |  | >400 µg/mL
CC(Sc1ncnc2c1cnn2COCC(O)CO)C(N)=O | B2006 (TK-) | cytopathic effect | E6SM | >400 µg/mL
Brc1ccccc1-c1cc2c(-c3ccnc(NC4CCCC4)n3)ccc(NC3CCCC3)n2n1 | SC16 | antigen / hybridisation | VERO 76 | 0.85 µM
CC(=O)c1c(O)c(C(=O)CC(C)C)c(O)c2c1OC(C(C)(C)O)C2 |  | cytopathic effect | VERO | 44.6 µM
CC1(C)[C@@H](CCO)C[C@H]1n1nnc2c(=O)[nH]c(N)nc21 | TK-/VMW 1837 | cytopathic effect | E6SM | 300 µg/mL
NC(=O)CSc1ncnc2c1cnn2CCCCO | VWM1837 (TK-) | cytopathic effect | E6SM | >400 µg/mL
CCCCCCc1cn([C@@H]2O[C@H](COP(=O)(O)O)[C@@H](O)[C@H]2O)c(=O)nc1N | McIntyre |  |  | >400 µg/mL
Cc1c(-c2ccc(F)cc2)[nH]c2nc3c(ncn3COCCO)c(=O)n12 | TK- | cytopathic effect | HEL | >80 µg/mL
c1ccc(Oc2ccc(-c3cc4c(-c5ccnc(NC6CCCC6)n5)ccc(NC5CCCC5)n4n3)cc2)cc1 | SC16 | antigen / hybridisation | VERO 76 | 0.9 µM
O=C(O)CP(=O)(O)O | HL-3 | plaque count | MEF | 3.6 µg/mL
Nc1ccn(C[C@@H](CO)OCP(=O)(O)O)c(=O)n1 | E-377 | plaque count | HFF | 1.1 µg/mL

6 of the rows above, restated:

| smiles | strain or isolate | read by | cells | value |
|---|---|---|---|---|
| CCC(Sc1ncnc2c1cnn2CCCCO)C(N)=O | B2006 (TK-) | cytopathic effect | E6SM | >400 µg/mL |
| CC(Sc1ncnc2c1cnn2COCC(O)CO)C(N)=O | B2006 (TK-) | cytopathic effect | E6SM | >400 µg/mL |
| CCC(Sc1ncnc2c1cnn2COCCO)C(N)=O | B2006 (TK-) | cytopathic effect | E6SM | >400 µg/mL |
| CC(NC(=S)Nc1ccc(NC(=O)c2ccccc2F)cc1C#N)c1ccc(F)cc1 | Patton | ELISA | HFF | >10 µg/mL |
| CCc1cn([C@H]2C[C@H](O)[C@@H](CO)O2)c(=O)[nH]c1=O | VMW1837 (TK-) | cytopathic effect | PRK | >400 µg/mL |
| Brc1ccccc1-c1cc2c(-c3ccnc(NC4CCCC4)n3)ccc(NC3CCCC3)n2n1 | SC16 | antigen / hybridisation | VERO 76 | 0.85 µM |

An empty or dashed field is not shown. Rows are shuffled and stem from different studies.